Here are results for two compounds from patent US5543429A, “Antifungal agents” (Merck & Co., Inc., priority 1995, dated 1996).

For this experiment, the system named is panel of fungi. In words: broth microdilution assay against a panel of fungi. The note with it: MIC and MFC. In general terms: Broth dilution looks for growth in wells or tubes with falling amounts of substance.

The structures appear in SMILES notation.

In the case of `C=CC1=CCC2C(CC3OC(=O)C4(C)C(O)CCC2(C)C34O)C1C` (centres unmarked) [Compound II], the “effectiveness compared with amphotericin B” value is “effective at concentrations comparable to an established antifungal agent, amphotericin B”.

As to `C=CC1C(=C)CCC2C1CC1OC(=O)C3(C)C(O)CCC2(C)C13O` (centres unmarked) [Compound I], the “effectiveness compared with amphotericin B” value was “effective at concentrations comparable to an established antifungal agent, amphotericin B”.
